Measured values from several laboratories, pooled; numbers as filed in NIAID ChemDB.

All rows: whole-cell or culture tests; organism: Mycobacterium smegmatis

A number after MIC or MFC names an inhibition level or a share of isolates. Lines come from different laboratories, so protocols vary. Zones are inhibition diameters on agar. An empty or dashed field is not shown.

compound,strain or isolate,read-out,tested at,method,result
O=C(O)Cc1ccc2c(c1)[nH]c1ccc(Cl)cc12,-,MIC99,-,resazurin / visual reading / absorbance,500 µg/mL
COc1ccc(-c2nn(-c3ccccc3)cc2C2C3=C(NC(C)(c4cc(O)c(I)cc4Cl)NC3=O)Oc3c2c(C)nn3-c2ccccc2)cc1,NCIM 5138,zone,1 mg/mL,agar diffusion / agar,12 mm
COC(=O)Cc1ccc2[nH]c3ccc(C(F)(F)F)cc3c2c1,-,MIC99,-,resazurin / visual reading / absorbance,>500 µg/mL
C[C@H]1c2cccc(O)c2C(O)=C2C(=O)[C@]3(O)C(O)=C(C(N)=O)C(=O)[C@@H](N(C)C)[C@@H]3[C@@H](O)[C@@H]21,A29663,MIC,-,-,0.13 µg/mL
O=C(O)c1cn(C2CC2)c2c(F)c(N3CCNCC3)c(F)cc2c1=O,KD2008 (GYRA G89C),MIC99,-,-,0.94 µg/mL
Cc1nn(-c2ccccc2)c2c1C(c1cn(-c3ccccc3)nc1-c1ccc(F)cc1)C1=C(NC(C)(c3cc(O)c(I)cc3Cl)NC1=O)O2,NCIM 5138,zone,0.5 mg/mL,agar diffusion / agar,9 mm
O=C(O)Cc1ccc2[nH]c3ccc(Cl)cc3c2c1,-,MIC99,-,resazurin / visual reading / absorbance,500 µg/mL
Cc1nn(-c2ccccc2)c2c1C(c1cn(-c3ccccc3)nc1-c1ccc(Cl)cc1)C1=C(NC(C)(c3cc(O)cc(O)c3)NC1=O)O2,NCIM 5138,zone,0.5 mg/mL,agar diffusion / agar,1.9 mm
CC(C)N1CCN(c2cc3c(cc2F)c(=O)c(C(=O)O)cn3C2CC2)CC1,KD1163 (GRYA+),MIC99,-,-,0.16 µg/mL
Cc1nn(-c2ccccc2)c2c1C(c1cn(-c3ccccc3)nc1-c1ccc(F)cc1)C1=C(NC(C)(c3cc(O)cc(O)c3)NC1=O)O2,NCIM 5138,zone,0.1 mg/mL,agar diffusion / agar,4.1 mm
CC1CN(c2c(F)cc3c(=O)c(C(=O)O)cn(C4CC4)c3c2F)CC(C)N1,KD2008 (GYRA G89C),MIC99,-,-,1.2 µg/mL
COC(=O)Cc1cccc2[nH]c3ccc(Cl)cc3c12,-,MIC99,-,resazurin / visual reading / absorbance,>500 µg/mL
CCC1CN(c2c(F)cc3c(=O)c(C(=O)O)cn(C4CC4)c3c2F)CCN1,KD1998 (GYRA D95N),MIC99,-,-,1.4 µg/mL
Cc1nn(-c2ccccc2)c2c1C(c1cn(-c3ccccc3)nc1-c1ccc(F)cc1)C1=C(NC(C)(c3cc(O)c(Cl)c(O)c3)NC1=O)O2,NCIM 5138,zone,0.5 mg/mL,agar diffusion / agar,7.6 mm
COc1c(N2CC(C)NC(C)C2)c(F)cc2c(=O)c(C(=O)O)cn(C3CC3)c12,KD1991 (GYRA D95Y),MIC99,-,-,0.51 µg/mL
COC(=O)Cc1ccc2[nH]c3ccccc3c2c1,-,MIC99,-,resazurin / visual reading / absorbance,>500 µg/mL

A second listing of 2 rows from above:

compound | strain or isolate | read-out | tested at | method | result
COC(=O)Cc1ccc2[nH]c3ccccc3c2c1 | - | MIC99 | - | resazurin / visual reading / absorbance | >500 µg/mL
Cc1nn(-c2ccccc2)c2c1C(c1cn(-c3ccccc3)nc1-c1ccc(F)cc1)C1=C(NC(C)(c3cc(O)cc(O)c3)NC1=O)O2 | NCIM 5138 | zone | 0.1 mg/mL | agar diffusion / agar | 4.1 mm